In series [1] the test system is Respiratory Syncytial Virus (Long). Format: cell-based. The procedure: A cytoprotection assay procedure using MTS is employed to evaluate compounds for antiviral activity against Respiratory Syncytial Virus (Long) in Vero (African green monkey, ATCC Cat. No. CCL-81) cells. The cells are pre-grown overnight at 37° C. (2×10^4/well in 96 well tissue culture plates) with 10% fetal Bovine serum containing Minimum Essential Medium. The positive control for the assay is Interferon-Gamma/Ribavirin. The infection medium contains reduced serum levels (2% FBS).
Using half log dilutions with high test starting at 100 μg/ml the drug dilutions are made and added to triplicate cultures in 0.1 ml volume and pre-titrated virus suspension is also added in 0.1 ml volume. […] CPE inhibition is determined by dye uptake procedure (Celltiter-MTS). […] The amount of soluble formazan produced by cellular reduction of the MTS is measured by the absorbance at 490 nm. The quantity of formazan product as measured by the amount of 490 nm absorbance is directly proportional to the number of living cells in the culture thus allowing the rapid quantitative analysis of the inhibition of virus-induced cell killing by the test substances. […]
The inhibitory drug concentration which reduces the viral replication by 95% (IC95) and the minimum drug concentration which inhibits cell growth by 95% (TC95) are calculated by using a regression analysis program for semilog curve fitting. […]

The next series has as its system HBV. The series can be described thus: HBV replication in chronically infected HepG2 2.2.15 cells (TaqMan PCR of HBV DNA). Format: cell-based, Hepatitis B virus. Further details: unit not given beside the values. The procedure:
Human HepG2-2.2.15 cells (ATCC Cat. No. CRL-11997), chronically infected with HBV, are plated in 96-well microtiter plates in DMEM medium supplemented with fetal bovine serum. After incubation at 37° C. in a humidified, 5% CO2 environment for 16-24 hours, the monolayer of HepG2-2.2.15 cells is washed and the medium is replaced with complete medium containing various concentrations of test compound. Every three days during the experiments, the culture medium is replaced with fresh medium containing the appropriately diluted test compound. Six days following the initial administration of the test compound, the cell culture supernatant is collected and clarified by centrifugation. The cell viability is evaluated by a dye uptake procedure (Promega's Cell Titer Aqueous One Solution). Virion-associated HBV DNA present in the tissue culture supernatant is amplified employing PCR technology using primer pairs derived from the HBV strain ayw. Subsequently, the PCR-amplified HBV DNA is detected in real-time by monitoring increases in fluorescence signals that result from exonucleolytic degradation of a quenched fluorescent probe molecule following hybridization of the probe to the amplified HBV DNA (TaqMan; Perkin-Elmer).
In general terms: Quantitative PCR measures a nucleic acid by following its amplification.

The values that follow come from patent US20030203969A1, “Pharmaceutically active aromatic guanylhydrazones” (priority 2000, published 2003).

The structures appear in SMILES notation. Read-outs that look alike come from different tables or passages of the source.

On to `CC(=NNC(=N)N)c1cc(NC(=O)CCCCCCCCC(=O)Nc2cc(C(C)=NNC(=N)N)cc(C(C)=NNC(=N)N)c2)cc(C(C)=NNC(=N)N)c1` [Compound 4, N,N′-bis (3,5-diacetylphenyl) decane diamide tetrakis (amidinohydrazone)], for which the TI stood at 5.95 in series [1] (TC50 divided by IC50) and 10.20 in series [1] (TC95 divided by IC95). Also, in the series on HBV (TC50 divided by IC50 (Intracellular Viral DNA)), the “TI50 Intracellular Viral DNA” value was more than 4.03. Further, the “TI50 Virion-DNA” value in the series on HBV (TC50 divided by IC50 (Virion-DNA)) is recorded as more than 6.27.
